This note sets out measurements from patent US6284456, “Transcriptional coactivator that interacts with Tat protein and regulates its binding to TAR RNA, methods for modulating Tat transactivation, and uses therefor” (The Salk Institute for Biological Studies, dated 2001).

The target of this experiment is GST-Tat-1 C22G ([…]) (HIV-1). Nature of the experiment: gel mobility shift with TAR-1 RNA, 400 ng GST-Tat and 750 ng GST-cyclin T1.

B1: GST-cyclin T1 (other)
chain: MEGERKNNNKRWYFTREQLENSPSRRFGVDPDKELSYRQQAANLLQDMGQRLNVSQLTINTAIVYMHRFYMIQSFTQFPGNSVAPAALFLAAKVEEQPKKLEHVIKVAHTCLHPQESLPDTRSEAYLQQVQDLVILESIILQTLGFELTIDHPHTHVVKCTQLVRASKDLAQTSYFMATNSLHLTTFSLQYTPPVVACVCIHLACKWSNWEIPVSTDGKHWWEYVDATVTLELLDELTHEFLQILEKTPNRLKRIWNWRACEAAKKTKADDRGTDEKTSEQTILNMISQSSSDTTIAGLMSMSTSTTSAVPSLPVSEESSSNLTSVEMLPGKRWLSSQPSFKLEPTQGHRTSENLALTGVDHSLPQDGSNAFISQKQNSKSVPSAKVSLKEYRAKHAEELAAQKRQLENMEANVKSQYAYAAQNLLSHHDSHSSVILKMPIEGSENPERPFLEKADKTALKMRIPVAGGDKAASSKPEEIKMRIKVHAAADKHNSVEDSVTKSREHKEKHKTHPSNHHHHHNHHSHKHSHSQLPVGTGNKRPGDPKHSSQTSNLAHKTYSLSSSFSSSSSTRKRGPSEETGGAVFDHPAKIAKSTKSSSLNFSFPSLPTMGQMPGHSSDTSGLSFSQPSCKTRVPHSKLDKGPTGANGHNTTQTIDYQDTVNMLHSLLSAQGVQPTQPTAFEFVRPYSDYLNPRSGGISSRSGNTDKPRPPPLPSEPPPPLPPLPK
With B1, the binding result is “no binding”.
